Assay results: EP0706514B1, “COMPOUNDS AND METHODS FOR INHIBITION OF HIV AND RELATED VIRUSES” (MEDIVIR AB, priority 1993, dated 1995)

Tested on: HIV virus
Experiment: Test A (XTT): reduction of virus-induced cytotoxicity in MT4 cells
Type: cell-based
Conditions: for % inhibition: Test A
Method: Tests A, B, C, and D (XTT)
MT4 cells in a medium of RPMI 1640, 5% FCS, penicillin/streptomycin are adjusted to 2x10^5 cells/ml and seeded into microplates (96 wells/plate) […] cell suspension/well giving 2x10^4 cells/well. The compound to be tested is made into a 10 mg/ml mixture in DMSO and stored at -20°C. […] Further dilutions to […] are made in medium containing microplates. Fifty […] of the 400, 40, and 4 mg/ml are transferred to the cell-containing microplates with a multi-channel pipette (final concentration: […]). Finally, […] of virus suspension is added to each well (with a repetitive "Eppendorf" multipipett). […] The plate is put into a plastic bag and incubated for six days in CO2 atmosphere. To each well in the plate is added […] of XTT ((2,3-bis[2-methoxy-4-nitro-5-sulfophenyl]-5-[(phenylamin o)carbonyl]-2H-tetrazolium hydroxide), (1 mg/ml 0.01-0.02 mM N-metyl-phenazonium methosulfate). After six hours of incubation in CO2 atmosphere the plates are covered with adhesive plate sealers and gently mixed on a vortex. Optical densities are determined at a wavelength of 450 nm and a reference wavelength of 650 nm. The percent reduction of cytotoxocity caused by the virus infection is calculated as follows: (OD450 compound - OD450 inf cells)/(OD450 uninf cells - OD450 inf cells)x 100 [formula]

## CCOc1ccc(F)c(CCNC(=O)Nc2ccc(Br)cn2)c1Cl
Human immunodeficiency virus 1, MT4, Test A, 10 µg/ml
  inhibition at 10 µg/mL: 83%
0.01 µg/ml
  % inhibition: 82%
0.1 µg/ml
  % inhibition: 89%
